This is an account of results in patent US6509033B1, “Immunomodulatory peptides” (President and Fellows of Harvard College, priority 1992, dated 2003).

The target in this assay is T1, HLA-DR1 (Homo sapiens, UniProt P01903+P01911, A100R/D57E/F55L/F60I/F76Y/I96L/L162R/M171V/P40L/Q125E/R42F/V115G/Y59C).
T1 construct: made in house; host or cells: Sf9 insect cells
Put plainly: Competition of synthetic peptides against 125I-labeled HA 307-319 for binding to empty HLA-DR1 (Ki). The settings on record: read-out: Ki vs HA 307-319; concentration inhibiting 50% of 125I-labeled HA 307-319 binding; 10 nM labeled peptide, 10 nM empty HLA-DR1 from Sf9 insect cells, pH 7.2, 37° C., 85 hours.

Each structure is given as a SMILES string.

For `CC[C@H](C)[C@H](NC(=O)[C@H](CCC(N)=O)NC(=O)[C@H](CC(N)=O)NC(=O)[C@H](CC(C)C)NC(=O)[C@@H](NC(=O)[C@H](Cc1c[nH]cn1)NC(=O)[C@H](CCCCN)NC(=O)[C@@H](N)Cc1ccc(O)cc1)[C@@H](C)O)C(=O)N[C@@H](CC(=O)O)C(=O)N[C@@H](CO)C(=O)N[C@H](C(=O)N[C@@H](CCCCN)C(=O)N[C@H](C(=O)N[C@@H](Cc1c[nH]c2ccccc12)C(=O)N1CCC[C@H]1C(=O)N[C@@H](CCCNC(=N)N)C(=O)N[C@@H](CCCNC(=N)N)C(=O)O)C(C)C)C(C)C` [Bovine Fetuin 56-72], the Ki – broadly, the equilibrium dissociation constant of an inhibitor or competing ligand from its target – turned out to be 66 ± 18 nM.
